Compound potency records, mixed from different reports. Data source: NIAID ChemDB in PubChem.

Shared fields: growth or infection tests; organism: Mycobacterium tuberculosis

MIC bound: limit read from a one-dose screen. Rows are shuffled and stem from different studies. A number after MIC or MFC names an inhibition level or a share of isolates. Inhibition is in % at the dose shown (toxicity tests: loss of growth or viability). Blank or dashed fields: not listed here. ECn: concentration that inhibits the pathogen or its effect by n%. Two numbers with a dash give a range or band. "inactive" is the filed call at that dose; no cut-off is given.

SMILES | read-out | strain | dose | read by | result
Nc1nnc2nc(C(C(=O)/C=C/c3cccc(O)c3)c3nc4nnc(N)n4[nH]c3=O)c(=O)[nH]n12 | inhibition | H37Rv | 12.5 µg/mL | BACTEC | 0%
Cn1cnc2c(NS(=O)(=O)c3ccccc3F)nc(Cl)cc21 | MIC99 | H37Rv | - | visual reading | 6.5 µM
CCOC(=O)c1cc(-c2ccc(Cl)cc2)n(CC(=O)N/N=C/c2ccccc2O)c1C | inhibition | H37Rv | 6.25 µg/mL | - | 96%
C[C@H](NCCNCCC(c1ccccc1)c1ccccc1)C1CCCCC1 | MIC | H37Rv | - | - | 15.6 µM
CC1=N/C(=C\c2cccc(Cl)c2)C(=O)O1 | inhibition | H37Rv | 12.5 µg/mL | BACTEC | -1%
Cn1cnc2c(NC(=O)c3cccc(Cl)c3)nc(Cl)cc21 | MIC99 | H37Rv | - | visual reading | 25 µM
CC1=NC(=O)C(=Cc2ccoc2)N1c1cc(C(C)C)c(O)cc1C | inhibition | H37Rv | 100 µg/mL | - | inactive
O=C(c1ccncc1)N(/N=C/c1cccc(Oc2ccccc2)c1)C(=O)c1cnccn1 | MIC | 9 isolates (sensitive) | - | - | >16 µg/mL
CCOC(=O)c1cc(-c2ccc(Cl)cc2)n(CCC(=O)N/N=C/c2[nH]c(C)c(C(C)=O)c2C)c1C | MIC | H37Rv | - | - | >6.25 µg/mL
O=C(NNc1nc(Nc2ccc(Cl)cc2)nc(Nc2ccccn2)n1)c1ccncc1 | inhibition | H37Rv | 0.025 µM | BACTEC / radiometric | 94%
Nn1c(-c2ccccc2)nn(C(=O)c2ccccc2)c1=O | MIC bound | H37Rv | - | BACTEC | >12.5 µg/mL
COc1c(N2C[C@H]3CCCN(C(=O)Cn4cc(CN5C(=O)/C(=N\NC(N)=S)C6(F)C=CC=CC56)nn4)[C@H]3C2)c(F)cc2c1N(C1CC1)CC(C(=O)O)C2=O | MIC | H37Rv | - | visual reading | 8 µg/mL
Cc1ccc(C)n1NC(=O)c1ccc(Cl)cc1 | MIC | Erdman | - | - | 32 µg/mL
Cn1cnc2c(NC(=O)c3ccccc3)nc(Cl)cc21 | MIC99 | H37Rv | - | visual reading | >25 µM
OC[C@H]1O[C@H](CSc2ccccc2)[C@@H](O)[C@@H]1O | MIC | H37Ra | - | - | >128 µg/mL
CCCCCCCCCCCCCCC(Oc1ccc(Cl)cc1)C(=O)O | MIC | H37Rv | - | - | 10 µg/mL
O=Cc1coc2ccc(Br)cc2c1=O | MIC | My 331/88 | - | - | 250 µM
C[C@H]1COc2c(N3CCN(C)CC3)c(F)cc3c(=O)c(C(=O)O)cn1c23 | MIC | MDR-TB | - | agar | 16 µg/mL
N#CC(C(=O)c1ccccc1F)c1nc2ccccc2[nH]1 | inhibition | H37Rv | 6.25 µg/mL | resazurin | -13%
Cn1cnc2c(NS(=O)(=O)c3ccccc3)nc(Cl)cc21 | MIC99 | H37Rv | - | visual reading | >25 µM
O=C(NNC1OC[C@H](O)[C@@H](O)[C@H]1O)c1ccncc1 | MIC90 | H37Rv (ATCC 27294) | - | - | 0.31 µg/mL
CO[C@H]1/C=C/O[C@@]2(C)Oc3c(C)c(O)c4c(O)c(c(/C=N/N5CCN(C)CC5)c(O)c4c3C2=O)NC(=O)/C(C)=C\C=C\[C@H](C)[C@H](O)[C@@H](C)[C@@H](O)[C@@H](C)[C@H](OC(C)=O)[C@@H]1C | EC50 | 90 drug-resistant isolates | - | - | >100 µg/mL
COc1cc(C2=NN(C(=O)COc3ccc4ccccc4c3)[C@H](c3ccc(O)cc3)C2)c(C)cc1OCC(=O)O | MIC | H37Rv | - | - | >6.25 µg/mL
CCCCCCCCCCCCCCC(Oc1ccccc1C)C(=O)O | MIC | H37Rv | - | - | 1 µg/mL
O=C(c1ccncc1)N(/N=C/c1cccc(Cl)c1)C(=O)c1cnccn1 | MIC | H37Rv | - | - | 0.5 µg/mL
CC(CCC(=O)NN)[C@H]1CC[C@H]2[C@@H]3[C@H](O)C[C@@H]4C[C@H](O)CC[C@]4(C)[C@H]3C[C@H](O)[C@]12C | MIC bound | H37Rv | - | BACTEC | >12.5 µg/mL
NNC(=O)c1ccncc1 | EC50 | 85 drug-resistant isolates | - | - | <40 µg/mL
O=C(NNc1nc(Nc2cccc([N+](=O)[O-])c2)nc(Nc2ccccn2)n1)c1ccncc1 | inhibition | H37Rv | 0.1109 µM | BACTEC / radiometric | 72%
O=S(C[C@@H]1N[C@H](CO)[C@@H](O)[C@@H]1O)c1ccccc1 | EC50 | H37Ra | - | BACTEC | >12.5 µg/mL
O=[N+]([O-])c1cccnc1-n1cnc2ccccc21 | inhibition | H37Rv | 6.25 µg/mL | resazurin | 14%
Cc1cccc(S(=O)(=O)Nc2nc(Cl)cc3c2ncn3C)c1 | MIC99 | H37Rv | - | visual reading | 25 µM
Cc1ccc2occ(C=O)c(=O)c2c1 | MIC | My 331/88 | - | - | 500 µM
Nc1nc2ccc(COc3ccc(C(=O)NC(CCC(=O)O)C(=O)O)cc3)cc2c(=O)[nH]1 | inhibition | H37Rv | 12.5 µg/mL | BACTEC | 19%
COC(=O)C1=C(C)NC(Nc2cccc(C#N)c2)=NC1c1ccc(Cl)cc1 | MIC | XDR-TB | - | agar | >64 µg/mL
C[N+](C)(C)CCCN1c2ccccc2S(=O)c2ccc(Cl)cc21.[I-] | MIC bound | H37Rv | - | BACTEC | >12.5 µg/mL
COc1nc2ccccc2cc1C(c1ccccc1)C(C)(O)CCN(C)C | MIC90 | H37Rv | - | - | 44.34 µg/mL
O=C(NNC1O[C@@H](CO)[C@@H](O)[C@H](O)[C@@H]1O)c1ccncc1 | MIC90 | H37Rv (ATCC 27294) | - | - | 1.25 µg/mL
Cc1cccc(Nc2nc(NNC(=O)c3ccncc3)nc(Nc3ccccn3)n2)c1 | inhibition | H37Rv | 0.1218 µM | BACTEC / radiometric | 74%
CC(=O)N[C@H]1C(NNC(=O)c2ccncc2)O[C@@H](CO)[C@@H](O)[C@@H]1O | MIC90 | H37Rv (ATCC 27294) | - | - | >100 µg/mL
CCCCCCCCCCC(Oc1ccc(Cl)cc1)C(=O)O | MIC | H37Rv | - | - | 100 µg/mL
Cn1cnc2c(NC(=O)c3ccc(C#N)cc3)nc(Cl)cc21 | MIC99 | H37Rv | - | visual reading | 25 µM
O=C(c1ccncc1)N(/N=C/c1ccccc1Cl)C(=O)c1cnccn1 | MIC | 9 isolates (sensitive) | - | - | 0.25–2 µg/mL
OC[C@H]1N[C@@H](CSc2ccncc2)[C@@H](O)[C@@H]1O | EC50 | H37Ra | - | BACTEC | >12.5 µg/mL
O=C(c1ccncc1)N(NCc1cccc(Cl)c1)C(=O)c1cnccn1 | MIC | 9 isolates (sensitive) | - | - | 0.25 µg/mL
COc1nc2ccc(Br)cc2cc1C(c1ccccc1)C(O)(CCCn1cccc1)c1ccc2ccccc2c1 | MIC90 | H37Rv | - | - | 59.56 µg/mL
O=C(NC(=S)NCc1ccco1)c1csc([N+](=O)[O-])c1 | MIC | - | - | resazurin | 40 µg/mL
CCC[C@H]1C[C@@H]2CC[C@@H](O2)[C@H](C)C(=O)O[C@@H]([C@H](C)[C@H]2CC[C@@H](C[C@@H](CCC)N(C)C)O2)[C@H](C)[C@@H]2CC[C@@H](O2)[C@@H](C)C(=O)O1 | MIC | 14 isolates | - | - | 1.5 µg/mL
Cc1cc(O)c(C(C)C)cc1N1C(=O)C(Cl)C1c1cccc(O)c1 | inhibition | H37Rv | 100 µg/mL | - | inactive
Nc1cc(C(=O)O)nc(N)n1 | MIC bound | H37Rv | - | BACTEC | >12.5 µg/mL
COC(=O)C1=C(C)NC(Nc2ccc(Br)cc2)=NC1c1ccc(Cl)cc1 | MIC | XDR-TB | - | agar | >64 µg/mL
CC1COc2c(N3CCN(C)CC3)c(F)cc3c(=O)c(C(=O)O)cn1c23 | MIC90 | 21 strains | - | - | 1 µg/mL
COc1nc2ccc(Br)cc2cc1C(c1ccccc1)C(O)(CCN1CCOCC1)c1ccc2ccccc2c1 | MIC90 | H37Rv | - | - | 59.76 µg/mL
CCCCCCCCCCC(Oc1ccccc1Cl)C(=O)O | MIC | H37Rv | - | - | 1 µg/mL
Cc1ccc(C(=O)Nc2nc(Cl)cc3c2ncn3C)cc1 | MIC99 | H37Rv | - | visual reading | >25 µM
CCCCCCCCCCCCCCC(Oc1ccccc1Cl)C(=O)O | MIC | H37Rv | - | - | 1 µg/mL
C[C@@H]1OC(NNC(=O)c2ccncc2)[C@H](O)[C@@H](O)[C@H]1O | MIC90 | H37Rv (ATCC 27294) | - | - | 0.62 µg/mL
COC(=O)C(=O)C1CCc2c(C(=O)OC)nc3[nH]n(-c4ccccc4)c(=O)c3c21 | MIC bound | H37Rv | - | BACTEC | >12.5 µg/mL
COc1ccccc1C1SC(C)C(=O)N1c1cc(C(C)C)c(O)cc1C | inhibition | H37Rv | 100 µg/mL | - | inactive
Cc1nc2c([N+](=O)[O-])c(N(C)C)c([N+](=O)[O-])cc2[nH]1 | inhibition | H37Rv | 6.25 µg/mL | resazurin | -25%
COC(=O)C1=C(C)NC(Nc2cccc(SC(F)(F)F)c2)=NC1c1ccc(Cl)cc1 | MIC | MDR-TB | - | agar | 16 µg/mL
CCCCCCCC/C=C/CCCCCC1CCCC(C)N1 | MIC | EMB-R | - | - | 6.3 µg/mL
O=Cc1coc2ccc(Cl)cc2c1=O | MIC | My 331/88 | - | - | 250 µM
COc1nc2cc(C)c(C)cc2cc1C(c1ccccc1)C(O)(CCN(C)C)c1cccc2ccccc12 | MIC90 | H37Rv | - | - | 40.09 µg/mL
COC(=O)C1=C(C)NC(=NCc2ccc(OC)cc2OC)NC1c1ccc(Cl)cc1 | MIC | MDR-TB | - | agar | 32 µg/mL
C=CCN(CCNC/C=C(\C)CCC=C(C)C)C1CCCC1 | MIC | H37Rv | - | - | 15.6 µM
N#Cc1ccc(SC[C@@H]2N[C@H](CO)[C@@H](O)[C@@H]2O)cc1 | EC50 | H37Ra | - | BACTEC | >12.5 µg/mL
Cc1cc(O)c(C(C)C)cc1N1C(=O)C(Cl)C1c1ccoc1 | inhibition | H37Rv | 100 µg/mL | - | inactive
Cc1ccc2c(n1)Nc1nc(N)nc(Cl)c1S2 | inhibition | H37Rv | 12.5 µg/mL | BACTEC | -3%
NCC[C@H](O)C(=O)N[C@@H]1C[C@H](N)[C@@H](O[C@H]2O[C@H](CN)[C@@H](O)[C@H](O)[C@H]2O)[C@H](O)[C@H]1O[C@H]1O[C@H](CO)[C@@H](O)[C@H](N)[C@H]1O | MIC | H37Rv | - | - | 2.5 µg/mL
Cc1cc(O)c(C(C)C)cc1N1C(=O)CSC1c1cccc(O)c1 | inhibition | H37Rv | 100 µg/mL | - | inactive
NNC(=O)C(=O)N/N=C(\CC1(O)C(=O)Nc2ccccc21)c1ccc(Cl)cc1Cl | MIC bound | H37Rv | - | BACTEC | >12.5 µg/mL
Cc1ccc(C)n1NC(=O)c1ccc(N)cc1O | MIC | Erdman | - | - | 2.6 µg/mL
Cc1cc(N/N=C(/c2ccccc2)c2ccccn2)nc2ccccc12 | MIC | H37Rv | - | - | 1.6 µg/mL
Cc1cc(O)c(C(C)C)cc1N1C(=O)C(Cl)C1c1ccccc1 | inhibition | H37Rv | 100 µg/mL | - | inactive
O=C(N/N=C/c1ccc(Cl)c(Cl)c1)c1ccncc1 | MIC bound | H37Rv | - | resazurin | <6.25 µg/mL
CCOC(=O)c1cc(-c2ccc(Cl)cc2)n(CCC(=O)N/N=C/c2ccccc2O)c1C | MIC | H37Rv | - | - | >6.25 µg/mL
O=C1C=C(N2CC2)c2ccccc2C1=O | MIC bound | H37Rv | - | resazurin | >6.25 µg/mL
CCCCCCCCCCC(C(=O)O)S(=O)(=O)c1ccc(Cl)cc1 | MIC | H37Rv | - | - | 0.1 µg/mL
CCCCC1CCCCCCc2[nH]c(/C=C3\N=C(c4ccc[nH]4)C=C3OC)cc21.Cl | MIC | RMP-R | - | - | 6.3 µg/mL
Cc1cc(O)c2c(c1)C(=O)C(c1c(C)cc3c(c1O)C(=O)C=CC3=O)=CC2=O | MIC | C9 streptomycin- isoniazid- rifampin-resistant | - | - | 100 µg/mL
COc1ccc(C2OC3=Nc4cc(C)c(C)cc4NC3C2=O)cc1OC | MIC bound | H37Rv | - | BACTEC | >12.5 µg/mL
CCCCCCCCCCC(C(=O)O)S(=O)(=O)c1ccc(C)cc1 | MIC | H37Rv | - | - | 10 µg/mL
CC1(C)OC2C(C(=O)NCC(=O)O)OC(n3cnc4c(N)ncnc43)C2O1 | MIC bound | H37Rv | - | BACTEC | >12.5 µg/mL
NS(=O)(=O)c1ccc(Nc2nc(NNC(=O)c3ccncc3)nc(Nc3ccccn3)n2)cc1 | inhibition | H37Rv | 0.0418 µM | BACTEC / radiometric | 90%

For reference, 4 entries again:

Cc1nc2c([N+](=O)[O-])c(N(C)C)c([N+](=O)[O-])cc2[nH]1 ; read-out: inhibition ; strain: H37Rv ; dose: 6.25 µg/mL ; read by: resazurin ; result: -25%
CCCCCCCCCCC(C(=O)O)S(=O)(=O)c1ccc(Cl)cc1 ; read-out: MIC ; strain: H37Rv ; result: 0.1 µg/mL
O=C(NNC1O[C@@H](CO)[C@@H](O)[C@H](O)[C@@H]1O)c1ccncc1 ; read-out: MIC90 ; strain: H37Rv (ATCC 27294) ; result: 1.25 µg/mL
COC(=O)C1=C(C)NC(Nc2cccc(C#N)c2)=NC1c1ccc(Cl)cc1 ; read-out: MIC ; strain: XDR-TB ; read by: agar ; result: >64 µg/mL